Results of unrelated studies side by side (data: NIAID ChemDB).

Shared fields: growth or infection tests; species: Hepatitis C virus; endpoint: EC50

ECn is the concentration giving n% inhibition of infection, replication or growth. a–b is a range or a potency band. Rows are shuffled and stem from different studies.

{"compound": "CC1CCC(C(=O)N(CC(F)(F)F)c2cc(-c3ccc(NC(=O)c4cscn4)cc3)sc2C(=O)O)CC1", "strain": "1b", "read by": "replicon", "result": "<0.5 µM"}
{"compound": "C=CC1CC1(NC(=O)[C@@H]1C[C@@H](Oc2cc(-c3ccccc3)nc3cc(OC)ccc23)CN1C(=O)[C@@H](NC(=O)OC(C)(C)C)C(C)C)C(=O)NS(C)(=O)=O", "strain": "1b", "read by": "replicon", "cells": "Huh7", "result": "<5 µM"}
{"compound": "O=C(NS(=O)(=O)C1CC1)c1ccc2c(C3CCCCC3)c3n(c2c1)CC(C(=O)N1CCOCC1)=Cc1cccnc1-3", "read by": "replicon", "cells": "Huh7", "result": "0.01–1 µM"}
{"compound": "O=C(Nc1ccc(C2SC(=Nc3ccc(N4CCOCC4)cc3)N(Cc3ccncc3)C2=O)cc1)[C@H]1CCCN1C(=O)OCc1ccccc1", "read by": "replicon", "cells": "Huh7", "result": "<0.1 µM"}
{"compound": "O=C(Cc1ccccc1SC(F)(F)F)N/N=C/c1ccccc1OS(=O)(=O)c1ccc(C(F)(F)F)cc1", "read by": "replicon", "cells": "Huh7", "result": "<5 µM"}
{"compound": "CCOc1nc(N)nc2ccc(-c3ccc(NC(=O)C(C)(C)N)cc3)nc12", "read by": "replicon", "cells": "Huh7", "result": "<0.3 µM"}
{"compound": "CCN(C(=O)C1CCC(C)CC1)c1cc(-c2ccc(NC(=O)c3ccn[nH]3)cc2)sc1C(=O)O", "strain": "1b", "read by": "replicon", "result": "<0.5 µM"}
{"compound": "CNC(=O)c1c(-c2ccc(F)cc2)oc2cc(N3CCOCC3)c(OCc3ccc(C#N)cc3)cc12", "read by": "replicon", "cells": "Huh7", "result": "<10 µM"}
{"compound": "CC(C)N=C1SC(c2ccc(NC(=O)[C@@H](C)NC(=O)[C@H](C)c3ccccc3)cc2)C(=O)N1Cc1ccccn1", "read by": "replicon", "cells": "Huh7", "result": "0.1–1 µM"}
{"compound": "O=C(O)/C=C/c1ccc(NC(=O)C2(NC(=O)c3ccc4c(C5CCCCC5)c5n(c4c3)CC/C=C\\Nc3ccccc3-5)CCCC2)cc1", "read by": "replicon", "cells": "Huh7", "result": "0.01–1 µM"}
{"compound": "CNC(=O)c1c(-c2ccc(F)cc2)oc2cc(N3CCOCC3)c(OCc3noc(-c4c(C)noc4C)n3)cc12", "read by": "replicon", "cells": "Huh7", "result": "<10 µM"}
{"compound": "C=C[C@@H]1C[C@]1(NC(=O)[C@@H]1C[C@@H](Oc2cc(-c3ccccc3)nc3cc(OC)ccc23)CN1C(=O)[C@@H](NC(=O)OCCCC)C(C)(C)C)C(=O)NS(=O)(=O)C1CC1", "strain": "1b", "read by": "replicon", "cells": "Huh7", "result": "<0.05 µM"}
{"compound": "COC(=O)/C=C/c1ccc(NC(=O)C2(NC(=O)c3ccc4c(C5CCCCC5)c5c6ccccc6ncn5c4c3)CCCC2)cc1", "read by": "replicon", "cells": "Huh7", "result": "1–10 µM"}
{"compound": "CC1(C)CC(=O)C2=C(C1)Nc1c(O)cccc1N(C(=O)CC(N)=O)C2c1ccc(Cl)cc1Cl", "strain": "1b", "read by": "luciferase / reporter gene / replicon", "result": "9.65 µM"}
{"compound": "COC(=O)Nc1ccc(-c2ccc3nc(NCc4ccc(S(N)(=O)=O)cc4)nc(NCC(F)(F)F)c3n2)cc1", "read by": "replicon", "result": "<0.1 µM"}
{"compound": "O=C(Cc1cccc(Cl)c1)N/N=C/c1c(F)cccc1OS(=O)(=O)c1ccc(C(F)(F)F)cc1", "read by": "replicon", "cells": "Huh7", "result": "<5 µM"}
{"compound": "CC1(C)CC(=O)C2=C(C1)Nc1c(O)cccc1NC2c1ccc(OCc2cccc(F)c2)cc1F", "strain": "1b", "read by": "luciferase / reporter gene / replicon", "result": "3.9 µM"}
{"compound": "CCNC(=O)c1c(-c2ccc(F)cc2)oc2cc(NS(C)(=O)=O)c(OC(C)C)cc12", "read by": "replicon", "cells": "Huh7", "result": "<1 µM"}
{"compound": "Cc1ccc(O)c2c1N(C(=O)c1cnccn1)C(c1ccc(OCc3ccccc3)cc1F)C1=C(CC(C)(C)CC1=O)N2", "strain": "1b", "read by": "luciferase / reporter gene / replicon", "result": "4.38 µM"}
{"compound": "CC1CCC(C(=O)N(c2cc(-c3ccc(NC(=O)c4ccncn4)cc3)sc2C(=O)O)C(C)C)CC1", "strain": "1b", "read by": "replicon", "result": "<0.5 µM"}
{"compound": "C[C@@H](NC(=O)Nc1ccccc1)C(=O)Nc1ccc(C2SC(=Nc3cccc(F)c3)N(Cc3ccco3)C2=O)cc1", "read by": "replicon", "cells": "Huh7", "result": "1–5 µM"}
{"compound": "COc1ccc2c(O[C@@H]3C[C@@H](C(=O)NC4(C(=O)NS(=O)(=O)C5CC5)CC4)N(C(=O)[C@@H](NC(=O)OC(C)(C)C)C(C)C)C3)cc(-c3ccccc3)nc2c1", "strain": "1b", "read by": "replicon", "cells": "Huh7", "result": "<5 µM"}
{"compound": "CNC(=O)c1c(-c2ccc(F)cc2)oc2cc(N3CCOCC3)c(OCc3csc(C)n3)cc12", "read by": "replicon", "cells": "Huh7", "result": "<1 µM"}
{"compound": "CCOc1nc(NCc2ccc(S(N)(=O)=O)cc2)nc2ccc(-c3ccc(F)c(NS(=O)(=O)C4CC4)c3)nc12", "read by": "replicon", "result": "<0.1 µM"}
{"compound": "CC1(C)CC(=O)C2=C(C1)Nc1c(O)cccc1N(C(=O)CCC(=O)N1CCc3ccccc3C1)C2c1ccc(OCc2ccccc2)cc1Cl", "strain": "1b", "read by": "luciferase / reporter gene / replicon", "result": "1.7 µM"}
{"compound": "COc1cccc(CC(=O)N/N=C/c2ccccc2OS(=O)(=O)c2ccc(Br)s2)c1", "read by": "replicon", "cells": "Huh7", "result": "<5 µM"}
{"compound": "CCOc1nc(N)nc2ccc(-c3ccc(C(=O)NCCN(C)C)cc3)nc12", "read by": "replicon", "cells": "Huh7", "result": ">1 µM"}
{"compound": "Cc1cccnc1C(=O)N/N=C/c1ccccc1OS(=O)(=O)c1ccc(C(F)(F)F)cc1", "read by": "replicon", "cells": "Huh7", "result": ">50 µM"}
{"compound": "O=C(Nc1ccc(C2SC(=Nc3ccc(N4CCOCC4)cc3)N(Cc3ccccn3)C2=O)cc1)[C@H]1CCCN1C(=O)C(c1ccccc1)c1ccccc1", "read by": "replicon", "cells": "Huh7", "result": "<0.1 µM"}
{"compound": "NS(=O)(=O)c1ccc(CNc2nc(NC3CC3)c3nc(-c4ccc(F)cc4)ccc3n2)cc1", "read by": "replicon", "result": "<0.1 µM"}
{"compound": "CNC(=O)c1c(-c2ccc(F)cc2)oc2cc(N(C)S(C)(=O)=O)c(OCc3ccc4c(c3)OC(C)(C)OC4=O)cc12", "read by": "replicon", "cells": "Huh7", "result": "<1 µM"}
{"compound": "C=C[C@@H]1C[C@]1(NC(=O)[C@@H]1C[C@@H](Oc2cc(-c3ccccc3)nc3cc(OC)ccc23)CN1C(=O)[C@@H](NC(=O)OCCC(=O)O)C(C)(C)C)C(=O)NS(=O)(=O)C1CC1", "strain": "1b", "read by": "replicon", "cells": "Huh7", "result": "<0.5 µM"}
{"compound": "CNC(=O)c1c(-c2ccc(F)cc2)oc2cc(O)c(O)cc12", "read by": "replicon", "cells": "Huh7", "result": ">30 µM"}
{"compound": "CS(=O)(=O)Nc1cc(-c2ccc3nc(NCc4ccc(S(N)(=O)=O)cc4)nc(NCC(F)(F)F)c3n2)ccc1F", "read by": "replicon", "result": "<0.1 µM"}
{"compound": "CNC(=O)c1c(-c2ccc(F)cc2)oc2cc(N(CCO)S(C)(=O)=O)c(OC)cc12", "read by": "replicon", "cells": "Huh7", "result": "<1 µM"}
{"compound": "Cc1[nH]ncc1C(=O)Nc1ccc(-c2cc(N(C(=O)C3CCC(C)CC3)C(C)C)c(C(=O)O)s2)cc1", "strain": "1a", "read by": "replicon", "result": ">0.5 µM"}
{"compound": "CCC(C)(C)c1ccc(S(=O)(=O)Oc2ccccc2/C=N/NC(=O)Cc2cccc(OC)c2)cc1", "read by": "replicon", "cells": "Huh7", "result": "<5 µM"}
{"compound": "CCC(=O)Nc1ccc(-c2ccc3nc(N)nc(NCCS(C)(=O)=O)c3n2)cc1", "read by": "replicon", "cells": "Huh7", "result": ">1 µM"}
{"compound": "COc1cccc(CC(=O)N/N=C/c2ccccc2OS(=O)(=O)c2ccc(C(F)(F)F)cc2)c1", "read by": "replicon", "cells": "Huh7", "result": "<5 µM"}
{"compound": "CC1(C)CC(=O)C2=C(C1)Nc1c(O)cccc1N(C(=O)c1ccccc1F)[C@H]2c1ccc(OCc2ccccc2)cc1F", "strain": "1b", "read by": "luciferase / reporter gene / replicon", "result": "0.53 µM"}
{"compound": "Fc1ccc(-c2ccc3nc(NCC(F)(F)F)nc(NCC(F)(F)F)c3n2)cc1", "read by": "replicon", "result": "<0.1 µM"}
{"compound": "O=C(Cc1cc(C(F)(F)F)cc(C(F)(F)F)c1)N/N=C/c1ccccc1OS(=O)(=O)c1ccc(C(F)(F)F)cc1", "read by": "replicon", "cells": "Huh7", "result": "<5 µM"}
{"compound": "COC(=O)N[C@H](C(=O)N1CCC[C@H]1c1ncc(-c2ccc(-c3ccc(-c4cnc([C@@H]5CCCN5C(=O)[C@@H](NC(=O)OC)C(C)C)[nH]4)cc3)cc2)[nH]1)C(C)C", "mutations": "P32L", "strain": "1b", "read by": "luciferase", "cells": "ET", "result": "0.000027 µM"}
{"compound": "COC(=O)/C=C/c1ccc(NC(=O)C2(NC(=O)c3ccc4c(C5CCCCC5)c5n(c4c3)CCCc3sc(N)nc3-5)CCCC2)cc1", "read by": "replicon", "cells": "Huh7", "result": ">10 µM"}
{"compound": "COc1cccc(CC(=O)N/[N+](C)=C/c2ccccc2OS(=O)(=O)c2ccc(C(F)(F)F)cc2)c1", "read by": "replicon", "cells": "Huh7", "result": ">50 µM"}
{"compound": "NS(=O)(=O)c1ccc(CNc2nc(Oc3cccc(F)c3)c3nc(-c4ccc(F)cc4)ccc3n2)cc1", "read by": "replicon", "result": "<0.1 µM"}
{"compound": "NC(=O)C1Cc2ncccc2-c2c(C3CCCCC3)c3ccc(C(=O)O)cc3n2C1", "read by": "replicon", "cells": "Huh7", "result": "0.01–1 µM"}
{"compound": "CN(c1ccccc1/C=N/NC(=O)Cc1cccc(Cl)c1)S(=O)(=O)c1ccc(C(F)(F)F)cc1", "read by": "replicon", "cells": "Huh7", "result": "<5 µM"}
{"compound": "Cn1cnc(S(=O)(=O)NC(=O)c2ccc3c(C4CCCCC4)c4n(c3c2)CCCc2ncccc2-4)c1", "read by": "replicon", "cells": "Huh7", "result": "1–10 µM"}
{"compound": "C=C[C@@H]1C[C@]1(NC(=O)[C@@H]1C[C@@H](Oc2cc(-c3ccccc3)nc3cc(OC)ccc23)CN1C(=O)[C@@H](NC(=O)OC(C)(C)C)C1CCCC1)C(=O)NS(=O)(=O)C(C)C", "strain": "1b", "read by": "replicon", "cells": "Huh7", "result": "<0.05 µM"}
{"compound": "C[C@@H](NC(=O)OCc1ccccc1)C(=O)Nc1ccc(C2SC(=Nc3cccc(OC(F)(F)F)c3)N(Cc3ccco3)C2=O)cc1", "read by": "replicon", "cells": "Huh7", "result": "0.1–1 µM"}
{"compound": "O=C(O)/C=C/c1ccc(NC(=O)C2(NC(=O)c3ccc4c(C5CCCCC5)c5n(c4c3)CCCc3[nH]cnc3-5)CCCC2)cc1", "read by": "replicon", "cells": "Huh7", "result": "1–10 µM"}
{"compound": "C=C[C@@H]1C[C@]1(NC(=O)[C@@H]1C[C@@H](Oc2cc(-c3ccccc3)nc3cc(OC)ccc23)CN1C(=O)[C@@H](NC(=O)C(C)(C)C)C(C)(C)C)C(=O)NS(=O)(=O)C1CC1", "strain": "1b", "read by": "replicon", "cells": "Huh7", "result": "<0.5 µM"}
{"compound": "CC1CCC(C(=O)N(c2cc(-c3ccc(NC(=O)c4cn(C)cn4)cc3)sc2C(=O)O)C2CCC2)CC1", "strain": "1b", "read by": "replicon", "result": "<0.5 µM"}
{"compound": "COC(=O)c1ccc2c(C3CCCCC3)c3n(c2c1)CC(C(=O)N1CCOCC1)Cc1ccccc1-3", "read by": "replicon", "cells": "Huh7", "result": "1–10 µM"}

Repeating the first 6 entries:

{"compound": "CC1CCC(C(=O)N(CC(F)(F)F)c2cc(-c3ccc(NC(=O)c4cscn4)cc3)sc2C(=O)O)CC1", "strain": "1b", "read by": "replicon", "result": "<0.5 µM"}
{"compound": "C=CC1CC1(NC(=O)[C@@H]1C[C@@H](Oc2cc(-c3ccccc3)nc3cc(OC)ccc23)CN1C(=O)[C@@H](NC(=O)OC(C)(C)C)C(C)C)C(=O)NS(C)(=O)=O", "strain": "1b", "read by": "replicon", "cells": "Huh7", "result": "<5 µM"}
{"compound": "O=C(NS(=O)(=O)C1CC1)c1ccc2c(C3CCCCC3)c3n(c2c1)CC(C(=O)N1CCOCC1)=Cc1cccnc1-3", "read by": "replicon", "cells": "Huh7", "result": "0.01–1 µM"}
{"compound": "O=C(Nc1ccc(C2SC(=Nc3ccc(N4CCOCC4)cc3)N(Cc3ccncc3)C2=O)cc1)[C@H]1CCCN1C(=O)OCc1ccccc1", "read by": "replicon", "cells": "Huh7", "result": "<0.1 µM"}
{"compound": "O=C(Cc1ccccc1SC(F)(F)F)N/N=C/c1ccccc1OS(=O)(=O)c1ccc(C(F)(F)F)cc1", "read by": "replicon", "cells": "Huh7", "result": "<5 µM"}
{"compound": "CCOc1nc(N)nc2ccc(-c3ccc(NC(=O)C(C)(C)N)cc3)nc12", "read by": "replicon", "cells": "Huh7", "result": "<0.3 µM"}